# Measured values: PubChem BioAssay AID624416 (The Scripps Research Institute Molecular Screening Center, 2012)
# The entries are a selection whose mix differs from that of the whole data set. The source made the active and inactive calls. Rule as the data show it: active = inhibition above about 8.5%; inactive = the rest.
# Tested on: HIV-1 gp120 / PG9 antibody interaction
# Experiment: small molecules engaging PG9 antibody – biochemical, TR-FRET, primary screen (AID 624416)
# Conditions: TR-FRET gp120-PG9 antibody binding; at 6.7 µM; stronger effect = higher value
row,SMILES,inhibition
1,CCCCn1nnnc1C(c1ccnc2ccccc12)N1CCC(n2c(=O)[nH]c3ccccc32)CC1 (stereo not drawn),inactive: -0.21%
2,CCC(c1nnnn1C(C)(C)C)N1CCC(n2c(=O)[nH]c3ccccc32)CC1 (stereo not drawn),inactive: 0.92%
3,O=C(NCC1(N2CCOCC2)CCCCC1)c1cc(F)c(F)cc1Cl,inactive: 0.37%
4,COc1cc(OC)c(C(=O)NCC2(N(C)C)CCCCC2)cc1OC,inactive: -0.83%
5,CN(C)c1cccc(C(=O)NCC2(N3CCCCC3)CCCCC2)c1,inactive: 0.18%
6,COc1ccc(CN(CCCl)CCCl)cc1Cl,inactive: -0.48%
7,CC(C)c1ccc(NC2CCN(C(=O)OC(C)(C)C)CC2)cc1,inactive: 0.05%
8,CCCOc1ccc(C(=O)NCC2(N(C)C)CCCCC2)cc1OC,inactive: -1.92%
9,Cc1ccc(C(=O)NCC2(N(C)C)CCCCC2)o1,inactive: -0.43%
10,COc1ccc(C(c2nnnn2C2CCCC2)N2CCC(n3c(=O)[nH]c4ccccc43)CC2)cc1 (stereo not drawn),inactive: 1.28%
11,O=C(NCC1(N2CCCCC2)CCCCC1)c1cncc(Br)c1,inactive: 0.2%
12,CN1CCC(Nc2cccc(F)c2)CC1,inactive: 0.92%
13,CSc1ccc(C(=O)NCC2(N3CCOCC3)CCCCC2)cc1,inactive: -3.47%
14,O=C(NCC1(N2CCCCC2)CCCCC1)c1cccc([N+](=O)[O-])c1,inactive: -1%
15,N#CC1(Nc2ccccc2)CCN(CCc2ccccc2)CC1,inactive: -0.56%
16,O=c1[nH]c2ccccc2n1C1CCN(C(c2ccccc2OC(F)(F)F)c2nnnn2C2CCCC2)CC1 (stereo not drawn),inactive: -0.37%
17,CCN1CCC(Nc2ccc(Cl)cc2)CC1,inactive: -0.99%
18,O=C(NCC1(N2CCCCC2)CCCCC1)c1ccc(OC(F)F)cc1,inactive: -1.08%
19,CC(C)(C)n1nnnc1C(c1ccccc1OC(F)(F)F)N1CCC(n2c(=O)[nH]c3ccccc32)CC1 (stereo not drawn),inactive: 0.13%
20,CCCCn1nnnc1C(c1cccc2ccccc12)N1CCC(n2c(=O)[nH]c3ccccc32)CC1 (stereo not drawn),inactive: -0.15%
21,CN1CCN(CCOC(=O)C(O)(c2ccccc2)c2ccccc2)CC1,inactive: -0.73%
22,CC(C)c1ccc(C(=O)NCC2(N3CCOCC3)CCCCC2)cc1,inactive: 0.96%

row,SMILES,inhibition
1,COc1ccc(NC2CCN(C(=O)OC(C)(C)C)CC2)cc1,inactive: 0.06%
2,COc1cc(C(=O)NCC2(N3CCCCC3)CCCCC2)ccc1OC(F)F,inactive: -1.15%
3,O=C(NCC1(N2CCOCC2)CCCCC1)c1cc(=O)[nH]c2ccccc12,inactive: 0.17%
4,O=C(NCC1(N2CCCCC2)CCCCC1)c1cccc(C(F)(F)F)c1,inactive: 0.71%
5,COc1ccc(NC2CCN(CCc3ccccc3)CC2)c(OC)c1,inactive: -3.42%
6,CCOC(=O)N1CCC(Nc2ccc(F)cc2)CC1,inactive: -2.58%
7,O=C(NCC1(N2CCCCC2)CCCCC1)c1ccc(F)cc1,inactive: -1.69%
8,O=P1(N(CCCl)CCCl)SCCCS1,inactive: -0.26%
9,CCCCn1nnnc1C(c1cc2ccccc2o1)N1CCC(n2c(=O)[nH]c3ccccc32)CC1 (stereo not drawn),inactive: 0.16%
10,CCCCOc1ccc(C(=O)NCC2(N3CCOCC3)CCCCC2)cc1,inactive: 0.26%
11,CCOc1ccc(C)cc1CN(CCCl)CCCl,inactive: -0.88%
12,O=C1CCN(Cc2ccccc2)CC1,inactive: -1.03%
13,CC(C)(C)n1nnnc1C(c1ccccc1)N1CCC(n2c(=O)[nH]c3ccccc32)CC1 (stereo not drawn),inactive: -0.08%
14,O=c1[nH]c2ccccc2n1C1CCN(C(c2cccc3ccccc23)c2nnnn2C2CCCC2)CC1 (stereo not drawn),inactive: -0.38%
15,COc1cc(C(=O)NCC2(N(C)C)CCCCC2)ccc1OC(F)F,inactive: -0.73%
16,CCOC(=O)N1CCC(Nc2cccc(C)c2)CC1,inactive: -2.06%
17,O=c1[nH]c2ccccc2n1C1CCN(C(c2ccccc2)c2nnnn2C2CCCCC2)CC1 (stereo not drawn),inactive: 0.13%
18,Cc1cccc(NC2(C#N)CCN(Cc3ccccc3)CC2)c1,inactive: 2.07%
19,CSc1ccccc1C(=O)NCC1(N2CCCCC2)CCCCC1,inactive: -2.55%
20,CCCCn1nnnc1C(c1cccs1)N1CCC(n2c(=O)[nH]c3ccccc32)CC1 (stereo not drawn),inactive: -1.85%
21,O=C(NCC1(N2CCCCC2)CCCCC1)c1cccs1,inactive: 0.75%
22,CCCCn1nnnc1C(CC)N1CCC(n2c(=O)[nH]c3ccccc32)CC1 (stereo not drawn),inactive: 0.48%

row,SMILES,inhibition
1,O=C(NCC1(N2CCCCC2)CCCCC1)c1ccc(=O)[nH]c1,inactive: -2.05%
2,CCC(c1nnnn1C1CCCC1)N1CCC(n2c(=O)[nH]c3ccccc32)CC1 (stereo not drawn),inactive: 1.06%
3,CC(C)(C)OC(=O)N1CCC(N(C(=O)c2ccccc2)c2ccc(F)cc2)CC1,inactive: 0.15%
4,COc1ccc(C(=O)NCC2(N3CCCCC3)CCCCC2)c(OC)c1OC,inactive: 1.54%
5,COc1ccc(C(=O)NCC2(N3CCCCC3)CCCCC2)cc1,inactive: 0.48%
6,CCCCn1nnnc1C(c1ccc(OC)cc1)N1CCC(n2c(=O)[nH]c3ccccc32)CC1 (stereo not drawn),inactive: -0.31%
7,CCOC(=O)N1CCC(Nc2ccc(OC)cc2)CC1,inactive: -2.36%
8,COc1ccc(Cl)cc1C(=O)NCC1(N2CCOCC2)CCCCC1,inactive: -3.13%
9,O=C(OC1CN2CCC1CC2)C1c2ccccc2Oc2ccccc21 (stereo not drawn),inactive: -0.68%
10,O=c1[nH]c2ccccc2n1C1CCN(C(c2cc3ccccc3o2)c2nnnn2C2CCCCC2)CC1 (stereo not drawn),inactive: 1.74%
11,N#CC1(Nc2ccccc2)CCN(Cc2ccccc2)CC1,inactive: -0.76%
12,O=C(NCC1(N2CCCCC2)CCCCC1)c1ccc(Cl)s1,inactive: 1.67%
13,O=C(NCC1(N2CCOCC2)CCCCC1)c1cc2ccccc2o1,inactive: 1.09%
14,Cc1cc(C)cc(N(C(=O)c2ccccc2)C2CCN(C(=O)OC(C)(C)C)CC2)c1,inactive: -1.41%
15,O=c1[nH]c2ccccc2n1C1CCN(C(c2ccccc2OC(F)(F)F)c2nnnn2C2CCCCC2)CC1 (stereo not drawn),inactive: 0.84%
16,O=C(NCC1(N2CCCCC2)CCCCC1)c1ccc(Cl)nc1,inactive: 0.98%
17,CCCOc1ccc(C(=O)NCC2(N(C)C)CCCCC2)cc1,inactive: 1.1%
18,O=c1[nH]c2ccccc2n1C1CCN(C(c2cc3ccccc3o2)c2nnnn2C2CCCC2)CC1 (stereo not drawn),inactive: -1.15%
19,O=C(O)C1(Nc2ccccc2)CCN(Cc2ccccc2)CC1,inactive: -0.05%
20,NN(c1ccccc1)C1CCN(CCc2ccccc2)CC1,inactive: 0%
21,CC(C)(C)OC(=O)N1CCC(Nc2ccccc2)CC1,inactive: 1.52%
22,CN1CCC(Nc2ccc(F)c(Cl)c2)CC1,inactive: -0.11%

row,SMILES,inhibition
1,CCOc1ncccc1C(=O)NCC1(N2CCOCC2)CCCCC1,inactive: 1.34%
2,CN1CCC(Nc2ccc(Cl)cc2)CC1,inactive: -2.9%
3,CCC(CO)(C(=O)OC1CN2CCC1CC2)c1ccccc1 (stereo not drawn),inactive: -0.65%
4,COc1cccc(C(c2nnnn2C2CCCC2)N2CCC(n3c(=O)[nH]c4ccccc43)CC2)c1OC (stereo not drawn),inactive: -0.72%
5,COc1cc(OC)cc(C(=O)NCC2(N3CCOCC3)CCCCC2)c1,inactive: -1.96%
6,COc1cccc(C(=O)N(c2cc(C)cc(C)c2)C2CCN(C(=O)OC(C)(C)C)CC2)c1,inactive: -0.04%
7,Cc1ccc(NC2(C#N)CCN(Cc3ccccc3)CC2)cc1,inactive: -3.25%
8,Fc1ccccc1NC1CCN(Cc2ccccc2)CC1,inactive: -1.65%
9,Cc1ccc(C(=O)NCC2(N3CCCCC3)CCCCC2)o1,inactive: -0.98%
10,O=c1[nH]c2ccccc2n1C1CCN(C(c2ccnc3ccccc23)c2nnnn2C2CCCCC2)CC1 (stereo not drawn),inactive: -1.02%
11,COc1cc(OC)cc(C(=O)NCC2(N3CCCCC3)CCCCC2)c1,inactive: -0.16%
12,CCC(c1nnnn1C1CCCCC1)N1CCC(n2c(=O)[nH]c3ccccc32)CC1 (stereo not drawn),inactive: -1.33%
13,CC(=O)N(c1ccccc1)C1CCNCC1,inactive: 0.36%
14,COc1cccc(C(c2nnnn2C2CCCCC2)N2CCC(n3c(=O)[nH]c4ccccc43)CC2)c1OC (stereo not drawn),inactive: 1.3%
15,Cn1c(=O)[nH]cc(N(CCCl)CCCl)c1=O,inactive: -1.69%
16,CN(C)c1ccc(C(=O)NCC2(N3CCCCC3)CCCCC2)cc1,inactive: -0.61%
17,O=C(NCC1(N2CCCCC2)CCCCC1)c1ccco1,inactive: -0.71%
18,CC(C)(C)n1nnnc1C(c1ccnc2ccccc12)N1CCC(n2c(=O)[nH]c3ccccc32)CC1 (stereo not drawn),inactive: -0.31%
19,CCN1CCC(Nc2cccc(F)c2)CC1,inactive: -3.3%
20,COc1ccc(C(c2nnnn2C2CCCCC2)N2CCC(n3c(=O)[nH]c4ccccc43)CC2)cc1 (stereo not drawn),inactive: 1.01%
21,Cc1ccccc1NC1(C#N)CCN(Cc2ccccc2)CC1,inactive: 0.16%
22,CC(C)(C)OC(=O)N1CCC(N(C(=O)c2ccccc2)c2ccc(Cl)cc2)CC1,inactive: -2.59%

row,SMILES,inhibition
1,N#Cc1ccc(C(=O)NCC2(N3CCCCC3)CCCCC2)cc1,inactive: 1.38%
2,CC(C)(C)n1nnnc1C(c1cccc2ccccc12)N1CCC(n2c(=O)[nH]c3ccccc32)CC1 (stereo not drawn),inactive: 0.18%
3,Cc1cc(N(CCCl)CCCl)ccc1C=O,inactive: 0.24%
4,O=c1[nH]c2ccccc2n1C1CCN(C(c2ccccc2)c2nnnn2C2CCCC2)CC1 (stereo not drawn),inactive: -1.4%
5,CCCN1CCC(Nc2cc(OC)cc(OC)c2)CC1,inactive: -1.79%
6,c1ccc(CN2CCC(Nc3ccccc3)CC2)cc1,inactive: 0.61%
7,C/C(N)=N\P(=O)(Oc1ccccc1)Oc1ccccc1,inactive: 0.04%
8,CN(C)C1(CNC(=O)c2cccc(C#N)c2)CCCCC1,inactive: -1.63%
9,O=c1[nH]c2ccccc2n1C1CCN(C(c2ccnc3ccccc23)c2nnnn2C2CCCC2)CC1 (stereo not drawn),inactive: 1.24%
10,COc1ccc(C(=O)NCC2(N3CCOCC3)CCCCC2)cc1OC,inactive: 1.21%
11,O=c1[nH]c2ccccc2n1C1CCN(C(c2cccs2)c2nnnn2C2CCCCC2)CC1 (stereo not drawn),inactive: 1.04%
12,O=C(NCC1(N2CCOCC2)CCCCC1)c1cc(Br)ccc1Cl,inactive: 1.32%
13,COc1cc(C(=O)NCC2(N3CCOCC3)CCCCC2)cc(OC)c1C,inactive: -0.66%
14,CCCCn1nnnc1C(c1ccccc1)N1CCC(n2c(=O)[nH]c3ccccc32)CC1 (stereo not drawn),inactive: -0.21%
15,CCCCn1nnnc1C(c1cccc(OC)c1OC)N1CCC(n2c(=O)[nH]c3ccccc32)CC1 (stereo not drawn),inactive: 0.37%
16,O=c1[nH]c2ccccc2n1C1CCN(C(c2cccs2)c2nnnn2C2CCCC2)CC1 (stereo not drawn),inactive: -0.55%
17,O=C(OC1CN2CCC1CC2)C1c2ccccc2C=Cc2ccccc21 (stereo not drawn),inactive: 1.09%
18,N/C(=N\O)c1c(N)no[n+]1[O-],inactive: 1.67%
19,COc1cccc(C(c2nnnn2C(C)(C)C)N2CCC(n3c(=O)[nH]c4ccccc43)CC2)c1OC (stereo not drawn),inactive: 0.54%
20,CCOC(=O)N1CCC(Nc2ccc(C)cc2)CC1,inactive: 0.08%
